Experimental data as given in US3997543A (priority 1974, dated 1976).

System: guinea pig ileum
Experiment: ACh-like (muscarinic) activity on isolated guinea pig ileum
Format: cell-based
Details: relative to acetylcholine = 1

SMILES: CC(=O)OC1C[N+]2(C)CCC1CC2 (racemic)
- EPMR (Equipotent molar ratio): > 1000
